From patent US20230357139A1, “SMALL MOLECULE INHIBITORS OF BACTERIAL TOXINS” (Artizan Biosciences, Inc., priority 2020, published 2023)

Chains of the proteins cited; added tags and fusions are not shown. Residues count along the entry.
UniProt Q833V7, 193-510 limits assumed: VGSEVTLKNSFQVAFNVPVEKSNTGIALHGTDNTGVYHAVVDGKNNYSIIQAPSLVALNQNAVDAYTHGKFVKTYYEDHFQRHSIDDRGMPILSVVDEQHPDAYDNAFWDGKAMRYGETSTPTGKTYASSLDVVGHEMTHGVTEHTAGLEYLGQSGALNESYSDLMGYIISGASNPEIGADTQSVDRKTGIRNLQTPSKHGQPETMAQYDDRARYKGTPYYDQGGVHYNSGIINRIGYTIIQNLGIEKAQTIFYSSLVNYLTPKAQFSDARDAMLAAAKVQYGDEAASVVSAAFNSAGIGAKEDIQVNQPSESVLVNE

Molecular target: Gelatinase E (GelE) (Enterococcus faecalis (strain ATCC 700802 / V583), UniProt Q833V7)
Assay: Gelatinase E activity assay (FRET peptide substrate)
Details: read-out: GelE IC50; Table 11
Method: Gelatinase E (Gel E) was purified from bacterial culture supernatant from E. faecalis. E. faecalis was cultured aerobically in Todd Hewitt Broth overnight at 37° C. Nucleic acid was precipitated with 0.9% protamine solution, followed by protein precipitation with ammonium sulfate. Resuspended protein pellet was further subjected to purification using FPLC (phenyl Sepharose column). Fractions with gelatinase activity as determined by casein agar assay were pooled and further concentrated.
Different concentrations of test compound were incubated with purified GelE and FRET-based peptide substrate (390 MMP FRET Substrate 1; Anaspec AS-27077) in assay buffer at room temperature for 30 minutes. The fluorescence signal was determined by a plate reader.

Compound | IC50 [nM]
CSc1ccc(S(=O)(=O)N(CC(N)=O)CC(C)C)cc1 | > 100000
COc1ccc(S(=O)(=O)N(CC(=O)NO)CC(C)C)nc1 | 299
